A mixed list of measured activities; the numbers were collected in NIAID ChemDB.

Common to all: host cell toxicity; cells: DAUDI; read-out: CC50

CCn: concentration that lowers growth or viability of the cells by n%.

| smiles | result |
|---|---|
| Nc1nc(NC2CC2)c2ncn(/C=C3/C[C@H]3CO)c2n1 | 132 µM |
| COC(=O)[C@H](C)NP(=O)(OC[C@H]1C/C1=C\n1cnc2c(N)nc(N)nc21)Oc1ccccc1 | >106 µM |
| Nc1ccn([C@@H]2C[C@@H](O)[C@H](CO)O2)c(=O)n1 | >50 µM |
| COC(=O)C(C)NOP(OC[C@H]1C/C1=C/n1cnc2c(N)[nH]c(=O)nc21)Oc1ccccc1 | >102 µM |
| Nc1nc(NC2CC2)c2ncn(/C=C3/C[C@@H]3CO)c2n1 | 13 µM |
| COC(=O)[C@H](C)NP(=O)(OC[C@H]1C/C1=C/n1cnc2c(OC)nc(N)nc21)Oc1ccccc1 | 4.35 µM |
| Nc1ccn([C@@H]2C[C@@H](O)[C@H](CO)O2)c(=O)n1 | >50 µM |
| COc1nc(N)nc2c1ncn2/C=C1/C[C@H]1CO | >202 µM |
| Nc1nc(F)nc2c1ncn2/C=C1\CC1CO | >50 µM |
| COC(=O)[C@H](C)NP(=O)(OC[C@H]1C/C1=C/n1cnc2c(N)nc(N)nc21)Oc1ccccc1 | 26 µM |
| Cc1cn([C@@H]2C[C@@H](O)[C@H](CO)O2)c(=O)[nH]c1=O | >50 µM |
| Nc1nc(N)c2ncn(/C=C3/C[C@H]3CO)c2n1 | >215 µM |
| COc1nc(N)nc2c1ncn2C=C1CC1CO | >202 µM |
| Nc1nc2c(ncn2/C=C2/C[C@@H]2CO)c(=O)[nH]1 | >214 µM |
| Cc1cn([C@@H]2C[C@@H](O)[C@H](CO)O2)c(=O)[nH]c1=O | >50 µM |

The last 2 rows once more:

| smiles | result |
|---|---|
| Nc1nc2c(ncn2/C=C2/C[C@@H]2CO)c(=O)[nH]1 | >214 µM |
| Cc1cn([C@@H]2C[C@@H](O)[C@H](CO)O2)c(=O)[nH]c1=O | >50 µM |

Conditions beyond the fields shown may differ between rows.